Compound potency records, mixed from different reports. Data source: NIAID ChemDB in PubChem.

Common to all: target-level tests; organism: HIV; protein: Reverse transcriptase

Blank or dashed fields: not listed here.

SMILES	read by	endpoint	mutations	result
Nc1ccn([C@@H]2CC[C@H](COP(=O)(O)OP(=O)(O)OP(=O)(O)O)O2)c(=O)n1	nucleotide incorporation / radiometric	Ki	-	10 µM
Nc1nc2c(ncn2[C@H]2CC[C@@H](COP(=O)(O)OP(=O)(O)OP(=O)(O)O)O2)c(=O)[nH]1	nucleotide incorporation	IC50	RT-F61L	0.06 µM
Nc1ncnc2c1ncn2[C@H]1CC[C@@H](COP(=O)(O)OP(=O)(O)OP(=O)(O)O)O1	-	Ki	-	4 µM
CN(C)c1nc(Cc2c(F)cccc2F)cc(=O)[nH]1	nucleotide incorporation	Ki	K103N	3 µM
Nc1ncnc2c1ccn2[C@H]1C[C@H](F)[C@@H](COP(=O)(O)OP(=O)(O)OP(=O)(O)O)O1	nucleotide incorporation / radiometric	IC50	RT-D67N K70R T215Y K219Q	0.16 µM
Nc1nc2c(ncn2[C@H]2CO[C@@H](COP(=O)(O)OP(=O)(O)OP(=O)(O)O)O2)c(=O)[nH]1	radiometric	Ki	RT-K103N	0.02 µM
Cc1c(Cc2cccc3ccccc23)nc(SCC(=O)c2cccs2)[nH]c1=O	ELISA	IC50	-	1.86 µM
CCN1c2ncc(CSc3ccccc3)cc2C(=O)N(C)c2c(C)cc(Cl)nc21	RT activity	IC50	K103N	4.37 µM
COc1ccc2nc3cc(Cl)ccc3c(NCCCN3CCN(CCCN)CC3)c2c1	nucleotide incorporation / radiometric	IC50	-	13 µg/mL
Cc1cn([C@H]2CC[C@@H](COP(=O)(O)OP(=O)(O)OP(=O)(O)OP(=O)(O)OC[C@@H]3CC[C@H](n4cc(C)c(=O)[nH]c4=O)O3)O2)c(=O)[nH]c1=O	nucleotide incorporation / radiometric	IC50	RT-W88G	34 µM
S=C(Cc1ccccn1)NCCc1ccccc1	radiometric	IC50	Y181I	>100 µM
CCN1c2ncc(CSc3cccc(OC)c3)cc2C(=O)N(C)c2c(C)cc(Cl)nc21	RT activity	IC50	K103N	4.59 µM
CN(C)CCCN=C(N)c1ccc(C(N)=NCCCN(C)C)cc1	nucleotide incorporation / radiometric	Ki	RT-Y188L	44 µM
CCc1c(Cc2cccc3ccccc23)nc(SCC(=O)c2ccco2)[nH]c1=O	ELISA	IC50	-	17.5 µM
CCN1c2nc(Cl)ccc2NC(=O)c2cc(CSc3cccc(OC)c3)cnc21	RT activity	IC50	Y181C	2.9 µM
CC(C)OC(=O)c1cc(NC(=S)OC(C)C)ccc1Cl	radiometric	IC50	Y181I	71.3 µM
COc1ccc2nc3cc(Cl)ccc3c(NCCCCN)c2c1	nucleotide incorporation / radiometric	IC50	-	10.5 µg/mL
COc1cc(C#N)cc(Oc2c(Cl)ccc(Cc3cc(C)c(=O)[nH]n3)c2F)c1	-	IC50	K103N L100I	0.002 µM
Cc1cc(Cc2ccc(Cl)c(Oc3cc(Cl)cc(C#N)c3)c2F)n[nH]c1=O	nucleotide incorporation	IC50	G190A	0.001 µM
COc1ccc2nc3cc(Cl)ccc3c(NCCN(CCN)CCN)c2c1	nucleotide incorporation / radiometric	IC50	-	5.6 µg/mL
Nc1nc2c(ncn2[C@H]2CC[C@@H](COP(=O)(O)OP(=O)(O)OP(=O)(O)O)O2)c(=O)[nH]1	-	Ki	RT-T215Y	0.04 µM
Nc1ncnc2c1ncn2[C@H]1CC[C@@H](COP(=O)(O)OP(=O)(O)OP(=O)(O)O)O1	radiometric	IC50	-	0.15 µM
CCN1c2ncc(CSc3cccc(OC)c3)cc2C(=O)Nc2c(C)cc(Cl)nc21	RT activity	IC50	Y181C	0.0593 µM
Cc1cn([C@H]2C[C@H](N=[N+]=[N-])[C@@]3(COP(=O)(O)OP(=O)(O)OP(=O)(O)O)CC23)c(=O)[nH]c1=O	-	IC50	-	~0.007 µM
COc1ccc2nc3cc(Cl)ccc3c(NCCCN(C)C)c2c1	nucleotide incorporation / radiometric	IC50	-	27 µg/mL
COc1ccc(CCSc2nc(Cc3cccc4ccccc34)c(C(C)C)c(=O)[nH]2)cc1	ELISA	IC50	-	449 µM
Nc1ncnc2c1ncn2[C@H]1CC[C@@H](COP(=O)(O)OP(=O)(O)OP(=O)(O)OP(=O)(O)OC[C@@H]2CC[C@H](n3cnc4c(N)ncnc43)O2)O1	nucleotide incorporation / radiometric	IC50	RT-K65R	>36 µM
COc1ccc2nc3cc(Cl)ccc3c(NCCNCCO)c2c1	nucleotide incorporation / radiometric	IC50	-	15 µg/mL
CCc1c(Cc2cccc3ccccc23)nc(SCCc2ccccc2)[nH]c1=O	ELISA	IC50	-	499 µM
S=C(CCCc1ccccc1)Nc1ccc(Cl)cn1	radiometric	IC50	Y181I	>100 µM
COc1ccc2nc3cc(Cl)ccc3c(NCCCN=CN)c2c1	nucleotide incorporation / radiometric	IC50	-	4.9 µg/mL
Nc1nc2c(ncn2[C@H]2CC[C@@H](COP(=O)(O)OP(=O)(O)OP(=O)(O)OP(=O)(O)OC[C@H]3O[C@@H](n4cnc5c(N)ncnc54)[C@H](O)[C@@H]3O)O2)c(=O)[nH]1	nucleotide incorporation / radiometric	IC50	RT-D67N K70R	1.4 µM
S=C(CCc1ccccc1)Nc1ccc(Cl)cn1	radiometric	IC50	Y181I	>100 µM
Nc1nc2c(ncn2[C@H]2CC[C@@H](COP(=O)(O)OP(=O)(O)OP(=O)(O)O)O2)c(=O)[nH]1	nucleotide incorporation / radiometric	IC50	RT-F116Y Q151M	0.071 µM
CCc1c(Cc2cccc3ccccc23)nc(SCC(=O)c2cccs2)[nH]c1=O	ELISA	IC50	-	9.67 µM
CCN1c2nc(Cl)ccc2NC(=O)c2cc(CSc3ccccc3)cnc21	RT activity	IC50	Y181C	1.5 µM
Nc1ccn([C@H]2CC[C@@H](COP(=O)(O)OP(=O)(O)OP(=O)(O)O)O2)c(=O)n1	nucleotide incorporation / radiometric	IC50	RT-F77L Q151M	2.6 µM

For reference, 2 entries again:

SMILES,read by,endpoint,mutations,result
CCN1c2ncc(CSc3cccc(OC)c3)cc2C(=O)N(C)c2c(C)cc(Cl)nc21,RT activity,IC50,K103N,4.59 µM
CCN1c2ncc(CSc3ccccc3)cc2C(=O)N(C)c2c(C)cc(Cl)nc21,RT activity,IC50,K103N,4.37 µM

ICn: concentration for n% inhibition. Lines come from different laboratories, so protocols vary.